From paper PMC9027176 (Viruses, 2022)

Chains of the proteins cited; added tags and fusions are not shown. Residues count along the entry.
UniProt F5HGJ3, 1-146 V117A: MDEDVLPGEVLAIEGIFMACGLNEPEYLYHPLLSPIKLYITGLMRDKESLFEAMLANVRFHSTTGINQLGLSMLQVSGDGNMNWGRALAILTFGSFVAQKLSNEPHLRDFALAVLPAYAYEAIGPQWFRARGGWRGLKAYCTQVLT

Target: KsBcl-2 (Human herpesvirus 8 type P, UniProt F5HGJ3, V117A)
Format: binding, Kaposi's sarcoma-associated herpesvirus
Settings: for affinity for KsBcl-2, higher than the limit of detection / binding to KsBcl-2 (in words): SPR; for affinity for KsBcl-2, higher than the limit of detection: stated in text as limit of detection; for binding to KsBcl-2 (in words): statement in the discussion; for IC50: read-out: Affinity (nM), KsBcl2 (This Study), measured by SPR, summary table without errors, NB = No Binding

SMILES	affinity for KsBcl-2, higher than the limit of detection	binding to KsBcl-2 (in words)	IC50
CC[C@H](C)[C@H](NC(=O)[C@H](CS)NC(=O)[C@H](CCC(N)=O)NC(=O)[C@H](CC(C)C)NC(=O)[C@H](CCCCN)NC(=O)[C@H](CCCNC(=N)N)NC(=O)[C@H](C)NC(=O)[C@@H](NC(=O)[C@H](CCC(N)=O)NC(=O)[C@@H](NC(=O)[C@H](CCC(=O)O)NC(=O)[C@H](C)NC(=O)[C@H](CCC(N)=O)NC(=O)[C@H](Cc1c[nH]cn1)NC(=O)[C@@H](N)CCC(N)=O)C(C)C)[C@@H](C)CC)C(=O)N[C@@H](C)C(=O)N[C@@H](CC(=O)O)C(=O)N[C@@H](CCC(N)=O)C(=O)N[C@@H](Cc1ccccc1)C(=O)N[C@@H](Cc1c[nH]cn1)C(=O)N[C@@H](CCCNC(=N)N)C(=O)N[C@@H](CC(C)C)C(=O)N[C@@H](Cc1c[nH]cn1)C(=O)N[C@H](C(=O)N[C@@H](CCC(N)=O)C(=O)N[C@@H](CCC(N)=O)C(=O)O)C(C)C [Bmf]	> 2 mM	did not detect any affinity	> 2000 nM
CSCC[C@H](NC(=O)[C@H](CCCNC(=N)N)NC(=O)[C@H](CCCNC(=N)N)NC(=O)[C@H](CC(C)C)NC(=O)[C@H](CCC(=O)O)NC(=O)[C@H](CCCNC(=N)N)NC(=O)CNC(=O)[C@H](Cc1ccc(O)cc1)NC(=O)[C@H](CCCNC(=N)N)NC(=O)[C@H](CCC(N)=O)NC(=O)[C@H](C)NC(=O)[C@H](C)NC(=O)[C@H](Cc1c[nH]c2ccccc12)NC(=O)[C@H](CC(C)C)NC(=O)[C@@H](N)CC(N)=O)C(=O)N[C@@H](CO)C(=O)N[C@@H](CC(=O)O)C(=O)N[C@@H](CCC(=O)O)C(=O)N[C@@H](Cc1ccccc1)C(=O)N[C@H](C(=O)N[C@@H](CC(=O)O)C(=O)N[C@@H](CO)C(=O)N[C@@H](Cc1ccccc1)C(=O)N[C@@H](CCCCN)C(=O)N[C@@H](CCCCN)C(=O)NCC(=O)O)C(C)C [Bad]	> 2 mM	did not detect any affinity	> 2000 nM
